Results of unrelated studies side by side (data: NIAID ChemDB).

Shared fields: whole-cell or culture tests; agent: Hepatitis C virus; endpoint: EC50

Two numbers with a dash give a range or band. Rows are shuffled and stem from different studies. ECn is the concentration giving n% inhibition of infection, replication or growth.

NC(=S)Nc1cccc(OCCCCCNc2ccc(C3CCCCC3)cc2)c1 ; read by: reporter gene / fluorescence ; cells: Ava5-EG(delta4AB)SEAP ; result: 0.001–1 µM
CCCCCCCCOc1ccc(N(C(=O)NCC(=O)O)c2nc(-c3cccnc3)c(F)s2)cc1C(F)(F)F ; result: <1 µM
N#Cc1cccc(OCCCCCOc2cccc(NC(N)=S)c2)c1 ; read by: reporter gene / fluorescence ; cells: Ava5-EG(delta4AB)SEAP ; result: 0.001–1 µM
CCc1oc(C)nc1C(=O)N1c2cccc(O)c2NC2=C(C(=O)CC(C)(C)C2)C1c1ccc(OCc2ccccc2)cc1F ; read by: luciferase / reporter gene / replicon ; strain or isolate: 1b ; result: 2.91 µM
COc1c(-c2ccc3cc(NS(C)(=O)=O)ccc3c2)cc(-n2ccc(=O)[nH]c2=O)cc1C(C)(C)C ; read by: luciferase ; cells: Huh7 ; strain or isolate: genotype 1b Con1 ; changes: C316N ; result: 0.0032 µM
CC1(C)CC(=O)C2=C(C1)Nc1c(O)cccc1NC2c1ccc(-c2ccccc2)cc1 ; read by: luciferase / reporter gene / replicon ; strain or isolate: 1b ; result: 25.33 µM
CCCCCCOc1ccc(N(C(N)=O)c2nc(-c3ccccn3)cs2)cc1 ; result: <1 µM
CC1(C)CC(=O)C2=C(C1)Nc1c(O)cccc1NC2/C=C/c1ccccc1[N+](=O)[O-] ; read by: luciferase / reporter gene / replicon ; strain or isolate: 1b ; result: >32 µM
S=C(NCCCCc1ccccc1)Nc1ccc2c(c1)Cc1cc(Br)ccc1-2 ; read by: reporter gene / fluorescence ; cells: Ava5-EG(delta4AB)SEAP ; result: 0.001–1 µM
CCCCCOc1ccc(N(C)c2nc(C(=O)Nc3ccc(C#N)cc3)cs2)cc1C(F)(F)F ; result: >10 µM
Cc1cc(OCc2ccccc2)ccc1C1C2=C(CC(C)(C)CC2=O)Nc2c(O)cccc2N1C(=O)CC#N ; read by: luciferase / reporter gene / replicon ; strain or isolate: 1b ; result: 1.83 µM
COc1ccc(OCCCCCOc2cccc(NC(N)=S)c2)cc1 ; read by: reporter gene / fluorescence ; cells: Ava5-EG(delta4AB)SEAP ; result: 0.001–1 µM
Cc1ccnc(C(=O)N2c3cccc(O)c3NC3=C(C(=O)CC(C)(C)C3)[C@@H]2c2ccc(OCc3ccccc3)cc2F)c1 ; read by: luciferase / reporter gene / replicon ; strain or isolate: 1b ; result: 0.78 µM
CCCCCCCCOc1ccc(N(C(=O)COC(C)=O)c2nc(-c3cccnc3)c(F)s2)cc1C(F)(F)F ; result: <1 µM
COc1ccc(-c2ccc(OCCCCCOc3cccc(NC(N)=S)c3)cc2)cc1 ; read by: reporter gene / fluorescence ; cells: Ava5-EG(delta4AB)SEAP ; result: 0.001–1 µM
CCCCCN(C)c1ccc(N(C(N)=O)c2nc(-c3ccc(F)c(F)c3)cs2)cc1C(F)(F)F ; result: <1 µM
COC(=O)N[C@H](C(=O)N1CCC[C@H]1c1ncc(-c2ccc(-c3ccc(-c4cnc([C@@H]5CCCN5C(=O)[C@@H](NC(=O)OC)C(C)C)[nH]4)cc3)cc2)[nH]1)C(C)C ; read by: luciferase ; cells: ET ; strain or isolate: 1b ; changes: Y93N ; result: 0.000509 µM
CCCCCN(C)c1ccc(N(C(N)=O)c2nc(-c3ccc(F)cc3)cs2)cc1C(F)(F)F ; result: <1 µM
CC(=O)N1c2cccc(O)c2NC2=C(C(=O)CC(C)(C)C2)C1c1ccc(C#N)cc1Cl ; read by: luciferase / reporter gene / replicon ; strain or isolate: 1b ; result: 32.41 µM
Cc1ccc(-c2ccccc2OCCCCCOc2cccc(NC(N)=S)c2)cc1 ; read by: reporter gene / fluorescence ; cells: Ava5-EG(delta4AB)SEAP ; result: 0.001–1 µM
Cc1cccc(C(=O)N2c3cccc(O)c3NC3=C(C(=O)CC(C)(C)C3)C2c2ccc(OCc3ccccc3)c(F)c2)n1 ; read by: luciferase / reporter gene / replicon ; strain or isolate: 1b ; result: 1.03 µM
CCCCCOc1ccc(N(C(=O)C(=O)OC)c2nc(-c3ccc(Cl)s3)cs2)cc1C(F)(F)F ; result: <1 µM

The last 2 rows once more:

Cc1cccc(C(=O)N2c3cccc(O)c3NC3=C(C(=O)CC(C)(C)C3)C2c2ccc(OCc3ccccc3)c(F)c2)n1 ; read by: luciferase / reporter gene / replicon ; strain or isolate: 1b ; result: 1.03 µM
CCCCCOc1ccc(N(C(=O)C(=O)OC)c2nc(-c3ccc(Cl)s3)cs2)cc1C(F)(F)F ; result: <1 µM